Source: article PMC10433847, “The Plasmodium Lactate/H^+ Transporter PfFNT Is Essential and Druggable In Vivo” (Antimicrobial Agents and Chemotherapy, 2023)

Protein sequences, listed by entry. Tags and fused reporters are not part of them.
UniProt O77389, whole entry V196L: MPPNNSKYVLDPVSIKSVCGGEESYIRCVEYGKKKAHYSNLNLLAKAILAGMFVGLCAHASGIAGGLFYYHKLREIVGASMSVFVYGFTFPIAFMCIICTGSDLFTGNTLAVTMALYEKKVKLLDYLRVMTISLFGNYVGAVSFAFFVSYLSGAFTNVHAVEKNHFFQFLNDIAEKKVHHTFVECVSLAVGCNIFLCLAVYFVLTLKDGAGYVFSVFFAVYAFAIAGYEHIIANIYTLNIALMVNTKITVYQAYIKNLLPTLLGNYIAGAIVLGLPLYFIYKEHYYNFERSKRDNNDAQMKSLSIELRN

Biological target: PfFNT V196L (Plasmodium falciparum, UniProt O77389, V196L)
Assay: 14C-lactate transport inhibition, PfFNT V196L expressed in yeast
Conditions: read-out: IC50, inhibition of 14C-lactate transport, pH 6.8, 1-mM inward lactate gradient
From the text: The generation of codon-optimized wild-type PfFNT and the G107S mutant in the yeast expression vector pDR196 have been described previously ([3], [12]). Point mutations encoding G21E or V196L were introduced using the QuikChange protocol (Stratagene), and sequenced for verification (for primers, see Table S2). For phenotypic growth assays, the PfFNT mutants were expressed in Saccharomyces cerevisiae strain W303-1A Δ jen1Δady2 cells (MATa, can1–100, ade2-loc, his3–11,15, leu2–3,–112, trp1–1–1, ura3–1, jen1::kanMX4, ady2::hphMX4) kindly provided by M. Casal ([33]). Yeast cultures were grown at 29°C to an optical density at 600 nm (OD600) of 1 ± 0.1 in selective SD medium with adenine, histidine, leucine, tryptophan, and 2% (wt/vol) glucose and lacking uracil. The cells were collected by centrifugation, washed with water, and diluted to an OD600 of 0.05 in 0.17% (wt/vol) Difco yeast nitrogen base without amino acids, 0.5% (wt/vol) ammonium sulfate, 50 mM morpholineethanesulfonic acid, and 1% (wt/vol) sodium L-lactate supplemented with adenine, histidine, leucine, and tryptophan. Growth at 29°C was monitored by measuring the OD600 at regular intervals. […] IC50 values were calculated from sigmoidal fits to a Hill equation (GraphPad Prism) from technical triplicates each for three biological repetitions.

COc1ccc(C(=O)C=C(O)C(F)(F)C(F)(F)F)cn1
IC50: 0.0102 mM
